Test results reported in patent publication US20230338310A1, “ANTI-VIRAL THERAPY” (priority 2020, published 2023).

Assay: PLP thiazolidine formation: reaction with pyridoxal-5′ phosphate cofactor, absorbance scan
Settings: for absorbance at 320 nm, reaction products versus PLP alone / absorbance at 390 nm versus PLP alone: 2 mM compound + 2 mM PLP, carbonate-bicarbonate buffer pH 7.4, 1 h room temperature, n=6; for reaction with PLP (thiazolidine formation): equimolar 2 mM, pH 7.4

Compound | absorbance at 320 nm, reaction products versus PLP alone | absorbance at 390 nm versus PLP alone | reaction with PLP (thiazolidine formation)
NCCSSCCN [cystamine dihydrochloride, 2,2′-Dithiobis(ethylamine)] | significant difference | non-significant reduction | to a lesser extent
NCCS [cysteamine, 2-Aminoethanethiol] | significant difference | significant reduction | react with PLP

Structures can show the parent of a compound that is named as a salt.
